Laboratory results as given in PMC2918394 (Journal of medicinal chemistry, 2010).

Biological target: SARS-CoV PLpro (Severe acute respiratory syndrome coronavirus, UniProt P0C6X7)
Type: biochemical

1-[1-(2-Naphthyl)ethyl]-4-(4-methoxybenzylamino)carbonylpiperazine [Compound 20]
IC50: > 100 µM
